Results of unrelated studies side by side (data: NIAID ChemDB).

Common to all: whole-cell or culture tests; agent: Candida albicans; measure: MIC

Two numbers with a dash give a range or band.

SMILES,strain or isolate,result
C=C(CC[C@@H](C)[C@H]1C[C@@H](O)[C@@]2(C(=O)O)C3=C(CC[C@]12C)[C@@]1(C)CC[C@H](O[C@@H]2O[C@@H](CO)[C@H](OC)[C@@H](O)[C@@H]2O)C(=C)[C@@H]1CC3)C(C)C,MY2301,>64 µg/mL
COc1cc(O)c2c(c1)O[C@H](c1ccc(O)cc1)CC2=O,,100 µg/mL
CC(=O)O[C@@H]1C[C@@]23C(=O)OC[C@](C)([C@@H]2CC[C@H]2C3=CC[C@@]3(C)[C@H](C(=O)O)[C@@](C)([C@H](C)C(C)C)CC[C@]23C)[C@H]1O[C@@H]1O[C@H](CO)[C@@H](O)[C@H](O)[C@H]1O,MY2301,0.5 µg/mL
CO[C@H]1CCCC[C@@H](c2ccccc2)OC(=O)[C@@H](C)[C@@]2(O)O[C@H]([C@@H](C)[C@H](O)[C@H]2OC)[C@@H](C)/C=C/[C@H]1OC,CBS 1893,0.06 µg/mL
O=C1Nc2ccc(F)cc2C1=Nc1cccc(Cc2cccc(N=C3C(=O)Nc4ccc(F)cc43)c2)c1,CIP 1180-79,<50 µg/mL
CCC[CH2][Sn]([CH2]CCC)([NH]C(Cc1c[nH]c2ccccc12)C(=O)O)[O]C(=O)C(N)Cc1c[nH]c2ccccc12,,12.5 µg/mL
C[C@H](CCC(=O)NCCNCCNC(=O)CC[C@@H](C)[C@H]1CCC2C3C(C[C@H](C)[C@@]21O)[C@@]1(C)CC[C@@H](O)CC1C[C@H]3O)[C@H]1CCC2C3C(C[C@H](C)[C@@]21O)[C@@]1(C)CC[C@@H](O)CC1C[C@H]3O,Isolate 4,0.011 µM
COc1cc(O)c2c(c1)C(=O)c1c(cc3c(c1O)-c1c(cc(C)c(C(=O)N[C@H](C)C(=O)O)c1O)[C@H](O[C@@H]1O[C@H](C)[C@H](N)[C@H](O[C@@H]4OC[C@@H](O)[C@H](O)[C@@H]4O)[C@H]1O)[C@H]3O)C2=O,IAM4888,3.1 µg/mL
CCC(C)n1ncn(-c2ccc(N3CCN(c4ccc(OC[C@H]5CO[C@](Cn6cncn6)(c6ccc(Cl)cc6Cl)O5)cc4)CC3)cc2)c1=O,,0.002–0.016 µg/mL
CCC(C)CC(C)CCCCCCCCC(=O)N[C@H]1C[C@@H](O)[C@H](NCCN)NC(=O)[C@@H]2[C@@H](O)CCN2C(=O)[C@H]([C@H](O)CCN)NC(=O)[C@H]([C@H](O)[C@@H](O)c2ccc(O)cc2)NC(=O)[C@@H]2C[C@@H](O)CN2C(=O)[C@H]([C@@H](C)O)NC1=O,MY2301,0.5 µg/mL
CCC[CH2][Sn](=[O])[CH2]CCC,,1 µg/mL
N#[N+]c1nc(-c2ccc(F)cc2F)[nH]c1C(=O)N1CCCC1,ATCC 10231,200 µg/mL
Clc1ccc(COC(Cn2ccnc2)c2ccc(Cl)cc2Cl)c(Cl)c1,ATCC 90028,0.06 µg/mL
O=C(O)C(Cc1c[nH]c2ccccc12)[NH][Sn]([c]1ccccc1)([c]1ccccc1)[c]1ccccc1,,<12.5 µg/mL
OC(Cn1cncn1)(Cn1cncn1)c1ccc(F)cc1F,ATCC 90028,0.12 µg/mL
N#[N+]c1nc(-c2ccccc2F)[nH]c1C(=O)N1CCCC1,ATCC 10231,>200 µg/mL
CC(C)C1=C[C@H]2C[C@]3(C=O)[C@@H]4CC[C@@H](C)[C@H]4C[C@@]2(CO[C@H]2C[C@@H]4OC(C)(C)O[C@@H]4[C@@H](C)O2)[C@]13C(=O)O,4711E,0.015 µg/mL
O=[N+]([O-])C1Cc2[se]nnc2-c2ccccc21,,12.5 µg/mL
N#[N+]c1nc(-c2ccc([N+](=O)[O-])cc2)[nH]c1C(=O)N1CCCC1,ATCC 10231,100 µg/mL
O=C1Nc2ccc(F)cc2C1=Nc1ccc(Oc2ccc(N=C3C(=O)Nc4ccc(F)cc43)cc2)cc1,CIP 1180-79,<50 µg/mL
O=C1CC23C=CCN4CC[C@H]5c6ccccc6N1C42[C@@H]5CC3,,>500 µg/mL
COc1cc(O)c2c(c1)C(=O)c1c(cc3c(c1O)-c1c(cc(C)c(C(=O)NC(CO)C(=O)O)c1O)[C@H](OC1OC(C)C(O)C(OC4OCC(O)C(O)C4O)C1O)C3O)C2=O,A9540,3.1 µg/mL
O=[N+]([O-])c1ccc2c(c1)CCc1[se]nnc1-2,,12.5 µg/mL
CCCCCOc1ccc(-c2ccc(-c3ccc(C(=O)N[C@H]4C[C@@H](O)[C@@H](O)NC(=O)[C@@H]5[C@@H](O)[C@@H](C)CN5C(=O)[C@H]([C@H](C)O)NC(=O)[C@H]([C@H](O)[C@@H](O)c5ccc(O)cc5)NC(=O)[C@@H]5C[C@@H](O)CN5C(=O)[C@H]([C@H](C)O)NC4=O)cc3)cc2)cc1,,0.015–0.125 µg/mL
O=C1Nc2ccccc2C1=Nc1ccc(Oc2cccc(N=C3C(=O)Nc4ccccc43)c2)cc1,CIP 1180-79,<50 µg/mL
N#[N+]c1nc(-c2ccc(F)cc2)[nH]c1C(=O)N1CCCC1,ATCC 10231,50 µg/mL
Cc1c(N=C2C(=O)Nc3ccccc32)cccc1N=C1C(=O)Nc2ccccc21,CIP 1180-79,<100 µg/mL
O=[N+]([O-])c1ccc2c(c1)CCc1snnc1-2,,12.5 µg/mL
C[C@@H]1CC[C@@]2(OC1)O[C@H]1[C@@H](O)[C@H]3[C@@H]4CC[C@H]5C[C@@H](O[C@@H]6O[C@H](CO)[C@H](O[C@@H]7O[C@H](CO)[C@@H](O)[C@H](O[C@@H]8OC[C@@H](O)[C@H](O)[C@H]8O)[C@H]7O[C@@H]7O[C@H](CO)[C@H](O)[C@H](O[C@@H]8O[C@H](CO)[C@@H](O)[C@H](O)[C@H]8O)[C@H]7O)[C@H](O)[C@H]6O)[C@H](O)C[C@]5(C)[C@H]4CC[C@]3(C)[C@H]1[C@@H]2C,MY1055,2.5 µg/mL
O=C1Nc2ccccc2C1=Nc1ccc(Cc2cccc(N=C3C(=O)Nc4ccccc43)c2)cc1,CIP 1180-79,<50 µg/mL
CCC(C)n1ncn(-c2ccc(N3CCN(c4ccc(OC[C@H]5CO[C@](Cn6cncn6)(c6ccc(Cl)cc6Cl)O5)cc4)CC3)cc2)c1=O,Isogenic isolate 7 MDR1 (25X),0.03 µg/mL
CN[C@@H]1[C@H](O)[C@@H](O)[C@H](O[C@H]2c3cc(C)c(C(=O)N[C@H](C)C(=O)O)c(O)c3-c3c(cc4c(c3O)C(=O)c3cc(OC)cc(O)c3C4=O)[C@@H]2O)O[C@@H]1C,ATCC 32354,3.1 µg/mL
CCc1ccc2c(c1)C(=Nc1c(CC)cc(Cc3cc(CC)c(N=C4C(=O)N(CC)c5ccc(CC)cc54)c(CC)c3Cl)c(Cl)c1CC)C(=O)N2CC,CIP 1180-79,<50 µg/mL
CC(=O)N1C(=O)SC[C@H]1C(=O)/C=C/C[C@H]1CC[C@H](C)/C=C\CC/C(C)=C\C(=O)O1,ATCC 10231,17.8 µM

Repeating the final 3 entries:

SMILES | strain or isolate | result
CN[C@@H]1[C@H](O)[C@@H](O)[C@H](O[C@H]2c3cc(C)c(C(=O)N[C@H](C)C(=O)O)c(O)c3-c3c(cc4c(c3O)C(=O)c3cc(OC)cc(O)c3C4=O)[C@@H]2O)O[C@@H]1C | ATCC 32354 | 3.1 µg/mL
CCc1ccc2c(c1)C(=Nc1c(CC)cc(Cc3cc(CC)c(N=C4C(=O)N(CC)c5ccc(CC)cc54)c(CC)c3Cl)c(Cl)c1CC)C(=O)N2CC | CIP 1180-79 | <50 µg/mL
CC(=O)N1C(=O)SC[C@H]1C(=O)/C=C/C[C@H]1CC[C@H](C)/C=C\CC/C(C)=C\C(=O)O1 | ATCC 10231 | 17.8 µM

Blank or dashed fields: not listed here. Rows are shuffled and stem from different studies.